Measured values as given in article PMC13683342, “Integrative structure of norovirus NS3 suggests a role in RNA transport” (2026).

By UniProt entry, the sequences of proteins in these tests, tags left out. Residues count along the entry.
UniProt Q83883, 460-761 limits assumed: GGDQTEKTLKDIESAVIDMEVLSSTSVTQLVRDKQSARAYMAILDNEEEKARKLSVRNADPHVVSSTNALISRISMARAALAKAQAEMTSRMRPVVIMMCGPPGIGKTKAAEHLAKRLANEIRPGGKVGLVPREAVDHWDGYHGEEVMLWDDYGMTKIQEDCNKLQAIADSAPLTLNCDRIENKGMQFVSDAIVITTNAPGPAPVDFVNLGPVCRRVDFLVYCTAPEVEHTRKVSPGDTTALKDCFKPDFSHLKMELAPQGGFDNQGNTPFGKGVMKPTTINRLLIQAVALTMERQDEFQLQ

Biological target: MBP-hex-NS3 (Norovirus Hu/1968/US, UniProt Q83883)
Test: malachite green ATPase assay
Conditions: 1 mM ATP, 10 mM MgCl2, pH 7.5, 37 °C, 30 min preincubation; caption calls the construct hex-NS3, b13 says MBP-tagged used
Source text: malachite green ATPase assay on MBP-hex-NS3 | dose-dependent decrease in ATP hydrolysis in the presence of increasing concentrations of ATPγS

Nc1ncnc2c1ncn2[C@@H]1O[C@H](COP(=O)(O)OP(=O)(O)OP(O)(O)=S)[C@@H](O)[C@H]1O
dose-dependent decrease in ATP hydrolysis: dose-dependent decrease in ATP hydrolysis in the presence of increasing concentrations of ATPγS
